Pooled drug test results. Numbers come from NIAID ChemDB, via PubChem.

Shared fields: whole-cell or culture tests; agent: Candida albicans; read by: agar diffusion / agar; read-out: zone

Zone: diameter of growth inhibition.

smiles,tested at,strain,result
Cc1nc2ccc(Br)cc2c(=O)n1-c1ccccc1[N+](=O)[O-],50 µg/mL,,15.96 mm
COc1ccccc1N1CCN(c2[nH]c(=O)[nH]c(=O)c2C(C)C)CC1,200 µg/disc,IFO 0583,<10 mm
O=C(O)Cc1ccc(-n2cnc3ccccc3c2=O)cc1,10 mg/mL,DMBC 005002,12.8 mm
CC(C)c1c(=O)[nH]c(=O)n2[nH]nnc12,200 µg/disc,IFO 0583,<10 mm
Clc1ccccc1C(c1ccccc1)(c1ccccc1)n1ccnc1,40000 µg/mL,,20 mm
CC(C)N(C(C)C)N1C(=O)/C(=C/c2ccccc2)SC1=S,100 mg/mL,ATCC 2091,10–15 mm
CCc1c(N2CCN(c3ccccc3OC)CC2)[nH]c(=O)[nH]c1=O,200 µg/disc,IFO 0583,<10 mm
O=c1c2ccccc2nc(-c2ccc(Cl)cc2)n1Cc1ccccc1,10 mg/mL,DMBC 005002,26.1 mm
C[C@@H]([C@H]1CC[C@H](C)C(=O)C1)[C@H]1CC[C@]2(C)C3=C(CC[C@@]12C)[C@]1(C)CC[C@H](O)C(C)(C)[C@H]1CC3,10 µg/disc,MTCC 183,29 mm
Cc1cc(Cl)nc(NC(c2ccc(O)cc2O)P(=O)(Oc2ccccc2)Oc2ccccc2)n1,10 µg/mL,,15 mm
CCN(CC)N1C(=O)C(C(Sc2ccccc2)c2ccc(Br)cc2)SC1=S,100 mg/mL,ATCC 2091,4–9 mm
COc1cc(-n2cnc3ccccc3c2=O)cc(OC)c1OC,10 mg/mL,DMBC 005002,11.4 mm
CCN(CC)N1C(=O)C(C(Sc2ccccc2)c2ccc3ccccc3c2)SC1=S,100 mg/mL,ATCC 2091,16–20 mm
Cc1nc2ccc(Br)cc2c(=O)n1-c1ccc(Br)cc1,50 µg/mL,,26.73 mm
CCOC=C1C(=O)NC(=S)NC1=O,10000 µg/mL,,12 mm
CCN(CC)N1C(=O)C(C(Sc2ccccc2)c2ccc(OC)cc2)SC1=S,100 mg/mL,ATCC 2091,4–9 mm
CC(C)=CCOc1ccc(C2CC(=O)c3ccc(O)cc3O2)cc1,100 µg/mL,ATCC 14053,0 mm
O=c1c2ccccc2ncn1NC(c1cccc([N+](=O)[O-])c1)P(=O)(Oc1ccccc1)Oc1ccccc1,10 µg/mL,,10 mm
N/N=C/c1c(O)[nH]c(=S)[nH]c1=O,10000 µg/mL,,0 mm
C[C@@H]1[C@H](O)[C@@H](C)/C=C/C=C/CC/C=C/C=C/C=C/C=C/C(O[C@H]2O[C@H](C)[C@@H](O)[C@H](N)[C@@H]2O)CC2O[C@](O)(CC(O)C(O)CCC(O)CC(O)CC(O)CC(=O)O[C@H]1C)CC(O)C2C(=O)O,100 µg/mL,ATCC 10231,12 mm
Nn1cnc2ccccc2c1=O,10 µg/mL,,8 mm
CC(C)CCOc1ccc(C2CC(=O)c3c(O)cc(O)cc3O2)cc1,100 µg/mL,ATCC 10231,0 mm
CC(C)c1c(N2CCN(c3ccccc3)CC2)[nH]c(=O)[nH]c1=O,200 µg/disc,IFO 0583,<10 mm
CCO[C@@H]1C[C@@H]([C@H](C)[C@H]2CC[C@]3(C)C4=C(CC[C@@]23C)[C@]2(C)CC[C@H](O)C(C)(C)[C@H]2CC4)CC[C@@H]1C,0.25 µg/disc,MTCC 183,9 mm
CCCc1c(=O)[nH]c(=O)n2[nH]nnc12,200 µg/disc,IFO 0583,<10 mm
O=C1NC(=S)SC1C(Sc1ccccc1)c1ccccc1,100 mg/mL,ATCC 2091,10–15 mm
Cc1nc2ccc(Br)cc2c(=O)n1-c1ccc(Cl)c(Cl)c1,50 µg/mL,,27.16 mm
CCN(CC)N1C(=O)C(C(Sc2ccccc2)c2cccc(C)c2)SC1=S,100 mg/mL,ATCC 2091,16–20 mm
COc1ccc(-n2cnc3ccccc3c2=O)cc1OC,10 mg/mL,DMBC 005002,10.5 mm
Clc1ccc(C(Cn2ccnc2)OCc2ccsc2Cl)c(Cl)c1,0.5 mg/mL,,22 mm
COc1ccccc1-n1c(C)nc2ccc(Br)cc2c1=O,50 µg/mL,,17.33 mm
CCOC(=O)C1=C(N)Oc2[nH]c(=S)[nH]c(=O)c2C1c1ccc(Cl)cc1,10000 µg/mL,,13 mm
O=C1NC(=S)S/C1=C\c1ccco1,100 mg/mL,ATCC 2091,10–15 mm
O=c1c2ccccc2ncn1NC(c1ccc(Cl)cc1)P(=O)(Oc1ccccc1)Oc1ccccc1,10 µg/mL,,12 mm

3 of the rows above, restated:

CCN(CC)N1C(=O)C(C(Sc2ccccc2)c2ccc3ccccc3c2)SC1=S ; tested at: 100 mg/mL ; strain: ATCC 2091 ; result: 16–20 mm
Cc1nc2ccc(Br)cc2c(=O)n1-c1ccccc1[N+](=O)[O-] ; tested at: 50 µg/mL ; result: 15.96 mm
CCOC(=O)C1=C(N)Oc2[nH]c(=S)[nH]c(=O)c2C1c1ccc(Cl)cc1 ; tested at: 10000 µg/mL ; result: 13 mm

An empty or dashed field is not shown. a–b is a range or a potency band. Rows are shuffled and stem from different studies.